Experimental data from US20120231024A1.

Molecular target: prostate specific membrane antigen (PSMA), native, on the cell surface (human) (UniProt Q04609)
Assay: cell-based or functional assay

Substance	cytotoxic effect on LNCaP cells (WST assay), IC50
recombinant immunotoxin A5-PE40 (from UniProt P11439 278-638)	0.09 nM
recombinant immunotoxin E8-PE40 (from UniProt P11439 278-638)	0.05 nM
